Reference: patent US20140011700
pKd: −log10 of the molar value. The exact form of at least one protein or probe is not confirmed.

Biological target: Influenza A nucleoprotein (NP) (Influenza A virus (A/WSN/33, H1N1)) (UniProt P15682)
Experiment: SPR
Conditions: 2'-OMe (stated as 2-O-methylated, positions not specified); purified recombinant protein; label: 5'-biotin

UAGAAACAAGGGUGUUUUUUCAGAUCUAUUAAACUUCACCCUGCUUUUGCU [biotinylated 2'-O-methylated RNA oligonucleotide]
pKd: 7.99
